Measured values from several laboratories, pooled; numbers as filed in NIAID ChemDB.

Common to all: growth or infection tests

a–b is a range or a potency band.

smiles | agent | strain | mutations | cell line | read by | conditions | read-out | tested at | value
CC(=O)N[C@H]1[C@H]([C@H](O)[C@H](O)CO)OC(C(=O)O)=C[C@@H]1N=C(N)N | Influenza A virus | H1N1 A/Bayern/07/95 | - | MDCK | - | - | EC50 | - | 3.4 µM
CN[C@H]1CC[C@@H](c2ccc(Cl)c(Cl)c2)c2ccccc21 | Cryptococcus neoformans | 99BC1-40 | - | - | broth dilution | - | MFC | - | 8 µg/mL
COc1ccc2oc(=S)n(-c3ccc(Br)cc3)c(=S)c2c1 | Mycobacterium kansasii | 6509/96 | - | - | - | 21 d | MIC | - | 32 µM
Cc1cn([C@@H]2O[C@H](CO)[C@@H](O)[C@@H]2O)c(=O)[nH]c1=O | Varicella zoster virus | Asahikawa | - | HELF | plaque count | - | inhibition | 1 µg/mL | 100%
O=C(NCc1ccc(Cl)cc1)c1c[nH]c2ccc(CCCO)cc2c1=O | Human cytomegalovirus | LYS | - | - | plaque count | - | EC50 | - | 1.3 µM
CCCCCCCCOC(=O)[C@]1(O)C[C@@H](O)[C@@H](O)[C@H](OC(=O)/C=C/c2ccc(O)c(O)c2)C1 | Aspergillus parasiticus | UMIP 1142.76 | - | - | absorbance | - | MIC50 | - | <500 µg/mL
CCOC(=O)c1ccc(OCCC2CCN(c3ccc(C)nn3)CC2)cc1 | Rhinovirus | 1963M-CV40 (LDL receptor group 62) | - | KB | neutral red | - | EC50 | - | 0.049 µM
Cc1cnnc(CCCOc2cc(C)c(-c3noc(C)n3)c(C)c2)c1 | Enterovirus | - | - | HeLa | cytopathic effect | - | EC50 | - | 0.033–0.659 µg/mL
CCCc1cc(=O)oc2cc(OC(=O)C(C)(C)C)c3c(c12)OC(C)(C)C=C3 | Measles virus | SA | - | CV-1 | cytopathic effect | - | EC50 | - | 0.6 µg/mL
CCc1ccc(CCCOc2cc(C)c(-c3noc(C(F)F)n3)c(C)c2)nn1 | Enterovirus | - | - | HeLa | cytopathic effect | - | EC50 | - | 0.033–0.659 µg/mL
O=c1oc2ccc(F)cc2c(=S)n1-c1ccc(F)cc1 | Mycobacterium kansasii | My 235/80 | - | - | - | 14 d | MIC | - | 8 µM
CCOC(=O)/C=C/[C@H](C[C@@H]1CCNC1=O)NC(=O)[C@@H](CC(=O)[C@@H](NC(=O)c1cc(C)on1)C(C)C)Cc1ccc(F)cc1 | Rhinovirus | Isolate 34 | - | OHIO HELA-I | cytopathic effect / visual reading | - | EC50 | - | 0.04 µg/mL
CCCc1cc(=O)oc2c3c(c4c(c12)OC(C)(C)C=C4)O[C@H](C)[C@H](C)C3=O | Measles virus | Chicago-1 | - | CV-1 | cytopathic effect | - | EC50 | - | 9 µg/mL
Cc1cc(OCCCc2ccc(C(C)F)nn2)cc(C)c1-c1noc(C(F)F)n1 | Enterovirus | - | - | HeLa | cytopathic effect | - | EC50 | - | 0.033–0.659 µg/mL
CCC(C)n1ncn(-c2ccc(N3CCN(c4ccc(OC[C@H]5CO[C@](Cn6cncn6)(c6ccc(Cl)cc6Cl)O5)cc4)CC3)cc2)c1=O | Cryptococcus gattii | VG IIc | - | - | broth dilution | - | MIC50 | - | 0.25 µg/mL
O=S(=O)([O-])c1ccc2c(S(=O)(=O)[O-])cc(S(=O)(=O)[O-])cc2c1 | Adenovirus | TYPE 3 | - | Human amnion AV3 cells | cytopathic effect | - | inhibition | 50 µg/mL | 0%
CCc1nc2ccccc2c(=O)n1NC(=O)Nc1cc(C(F)(F)F)cc(C(F)(F)F)c1 | Klebsiella pneumoniae | KL21 | - | - | - | - | MIC | - | >300 µM
CCCC(CCC)C(NC(C)=O)C1C(N=C(N)N)CC(C(=O)O)C1O | Influenza A virus | Influenza A/Washington/05/96 (H3N2) | - | MDCK | - | - | EC50 | - | <0.01 µM
CCCCCCCCCCCCCCCCCCCCCCOCC(C)(COCCCCCCCCCCCCCCCCCCCCCC)CO[C@]1(C(=O)O)C[C@H](OS(=O)(=O)O)[C@@H](NC(C)=O)[C@H]([C@H](OS(=O)(=O)O)[C@@H](COS(=O)(=O)O)OS(=O)(=O)O)O1 | Rotavirus | S-2 (serotype 2) | - | MA-104 | plaque count | - | EC50 | - | 1.7 µg/mL
COCc1ccc(CCCOc2c(C)cc(-c3noc(C(F)F)n3)cc2C)nn1 | Enterovirus | - | - | HeLa | cytopathic effect | - | EC50 | - | 0.033–0.659 µg/mL
O=C(NNC(=O)NC1CCCCC1)Nc1cc(C(F)(F)F)cc(C(F)(F)F)c1 | Klebsiella pneumoniae | KL21 | - | - | - | - | MIC | - | 100 µM
O=S(=O)(O)c1ccc2ccc(S(=O)(=O)O)cc2c1 | Herpes simplex virus | - | - | Human conjunctiva cells | cytopathic effect | - | inhibition | 5 µg/mL | 0%
COc1ccc2oc(=S)n(-c3ccc(C)cc3)c(=S)c2c1 | Mycobacterium kansasii | My 235/80 | - | - | - | 21 d | MIC | - | 16 µM
CCC(C)CC(C)CCCCCCCCC(=O)N[C@H]1C[C@@H](O)[C@H](NCCN)NC(=O)[C@@H]2[C@@H](O)CCN2C(=O)[C@H]([C@H](O)CCN)NC(=O)[C@H]([C@H](O)[C@@H](O)c2ccc(O)cc2)NC(=O)[C@@H]2C[C@@H](O)CN2C(=O)[C@H]([C@@H](C)O)NC1=O | Cryptococcus gattii | ICB 107 | - | - | broth dilution | - | MIC | - | 128 µg/mL
CC(N)C12CC3CC(CC(C3)C1)C2 | Influenza A virus | Influenza A/Shanghai/16/89 (H3N2) | - | MDCK | ELISA | - | EC50 | - | 0.018 µg/mL
O=C(O)c1cc(S(=O)(=O)[O-])ccc1O | Adenovirus | TYPE 3 | - | Human amnion AV3 cells | cytopathic effect | - | inhibition | 50 µg/mL | 25%
CC(C)Nc1nc2cc(Cl)c(Cl)cc2n1[C@H]1O[C@@H](CO)[C@H](O)[C@@H]1O | Human cytomegalovirus | - | - | MRC-5 | virus yield | - | EC50 | - | 18 µM
Nc1c(S(=O)(=O)O)cc2cc(S(=O)(=O)O)cc(O)c2c1O | Herpes simplex virus | - | - | Human amnion AV3 cells | cytopathic effect | - | inhibition | 5 µg/mL | 0%
Cc1cc(OCCCc2ccc(C(F)(F)F)nn2)cc(C)c1-c1noc(C(F)F)n1 | Enterovirus | - | - | HeLa | cytopathic effect | - | EC50 | - | 0.033–0.659 µg/mL
CCCc1cc(=O)oc2cc(OS(=O)(=O)c3ccc(C)cc3)cc(OS(=O)(=O)c3ccc(C)cc3)c12 | Measles virus | MO6 | - | CV-1 | cytopathic effect | - | EC50 | - | 0.5 µg/mL
O=c1oc2ccc(Br)cc2c(=S)n1-c1ccccc1 | Mycobacterium kansasii | My 235/80 | - | - | - | 21 d | MIC | - | 4 µM
CC(=O)Oc1ccc(CCCOc2cc(C)c(-c3noc(C)n3)c(C)c2)nn1 | Enterovirus | - | - | HeLa | cytopathic effect | - | EC50 | - | 0.033–0.659 µg/mL
Nc1ncnc2c1ncn2[C@@H]1C[C@H](NC=O)[C@@H](O)[C@H]1O | Pichinde virus | - | - | HFF | - | - | EC50 | - | >100 µg/mL
CCCc1cc(=O)oc2cc(OS(=O)(=O)c3ccc(C)cc3)cc(O)c12 | Measles virus | MO2 | - | CV-1 | cytopathic effect | - | EC50 | - | 7 µg/mL
O=c1[nH]c(=O)n([C@H]2C[C@H](O)[C@@H](CO)O2)cc1/C=C/Br | Varicella zoster virus | YS | - | HELF | plaque count | - | inhibition | 0.001 µg/mL | 8%
Nc1nc2c(ncn2COC(CO)CO)c(=O)[nH]1 | Human cytomegalovirus | 8702REC2 (ALA594VAL) | - | MRC-5 | hybridisation | - | EC50 | - | 1.8 µM
CN(NC(=O)Nc1cc(C(F)(F)F)cc(C(F)(F)F)c1)C(=O)Nc1cc(C(F)(F)F)cc(C(F)(F)F)c1 | Klebsiella pneumoniae | KL21 | - | - | - | - | MIC | - | 300 µM
Cc1ccc(CCCCCOc2ccc(-c3noc(C(F)F)n3)c(C)c2)nn1 | Enterovirus | - | - | HeLa | cytopathic effect | - | EC50 | - | 0.033–0.659 µg/mL
Nc1nc(=O)n([C@@H]2O[C@H](CO)[C@@H](O)[C@@H]2F)cc1I | Varicella zoster virus | Kawaguchi | - | HELF | plaque count | - | inhibition | 0.1 µg/mL | 98%
O=C(Nc1cc(C(F)(F)F)cc(C(F)(F)F)c1)NN(CC(O)CN1CCOCC1)C(=O)Nc1cc(C(F)(F)F)cc(C(F)(F)F)c1 | Klebsiella pneumoniae | KL21 | - | - | - | - | MIC | - | >300 µM
Cc1cn([C@@H]2O[C@H](CO)[C@@H](O)[C@@H]2F)c(=O)nc1N | Varicella zoster virus | KANNO | - | HELF | plaque count | - | inhibition | 0.1 µg/mL | 100%
O=C1Nc2ccc(F)c(F)c2[C@@](/C=C/C2CC2)(C(F)(F)F)N1 | HIV-1 | - | RT-Y181C | - | - | - | EC90 | - | <0.012 µM
C=CCc1ccc(O)c(OC)c1 | Candida tropicalis | 321 | - | - | turbidity | - | MIC90 | - | 500 µg/mL
O=C(N[C@@H](C(=O)N1CCC[C@H]1c1ncc(-c2ccc(-c3ccc(-c4cnc([C@@H]5CCCN5C(=O)[C@H](NC(=O)C5CC5)c5ccccc5)s4)cc3)cc2)s1)c1ccccc1)C1CC1 | Hepatitis C virus | genotype 2a | T24A | Huh7.5 | luciferase / reporter gene | - | EC50 | - | 0.0162 µM
O=C1Nc2ccc(F)c(F)c2[C@@](C#CC2CC2)(C(F)(F)F)N1 | HIV-1 | - | RT-V106A | - | - | - | EC90 | - | <0.012 µM
CCC(CC)[C@H](NC(C)=O)[C@@H]1C[C@@H](C(=O)O)C[C@H]1N=C(N)N | Influenza A virus | Influenza A/Sydney/05/97 (H3N2) | - | MDCK | - | - | EC50 | - | 0.13 µM
O=S(=O)([O-])c1ccc2c(O)cc(S(=O)(=O)[O-])cc2c1 | Herpes simplex virus | - | - | Human amnion AV3 cells | cytopathic effect | - | inhibition | 10 µg/mL | 0%
Nc1nc2c(ncn2COCCO)c(=O)[nH]1 | Varicella zoster virus | KANNO | - | HELF | plaque count | - | inhibition | 10 µg/mL | 100%
O=S(=O)(O)c1cc(O)c2c(O)cc(S(=O)(=O)O)cc2c1 | Herpes simplex virus | - | - | Human amnion AV3 cells | cytopathic effect | - | inhibition | 10 µg/mL | 0%
Cc1cc(OCCCc2ccc(=S)[nH]n2)cc(C)c1-c1noc(C(F)F)n1 | Enterovirus | - | - | HeLa | cytopathic effect | - | EC50 | - | 0.033–0.659 µg/mL
CO/N=C1\CN(c2nc3c(cc2F)c(=O)c(C(=O)O)cn3C2CC2)CC1CN | Escherichia coli | 13 strains | - | - | - | - | MIC90 | - | 0.25 µg/mL

For reference, 4 entries again:

CCOC(=O)/C=C/[C@H](C[C@@H]1CCNC1=O)NC(=O)[C@@H](CC(=O)[C@@H](NC(=O)c1cc(C)on1)C(C)C)Cc1ccc(F)cc1 ; agent: Rhinovirus ; strain: Isolate 34 ; cell line: OHIO HELA-I ; read by: cytopathic effect / visual reading ; read-out: EC50 ; value: 0.04 µg/mL
CC(=O)N[C@H]1[C@H]([C@H](O)[C@H](O)CO)OC(C(=O)O)=C[C@@H]1N=C(N)N ; agent: Influenza A virus ; strain: H1N1 A/Bayern/07/95 ; cell line: MDCK ; read-out: EC50 ; value: 3.4 µM
Cc1cn([C@@H]2O[C@H](CO)[C@@H](O)[C@@H]2F)c(=O)nc1N ; agent: Varicella zoster virus ; strain: KANNO ; cell line: HELF ; read by: plaque count ; read-out: inhibition ; tested at: 0.1 µg/mL ; value: 100%
CCCc1cc(=O)oc2cc(OC(=O)C(C)(C)C)c3c(c12)OC(C)(C)C=C3 ; agent: Measles virus ; strain: SA ; cell line: CV-1 ; read by: cytopathic effect ; read-out: EC50 ; value: 0.6 µg/mL

MIC50, MIC90 and the like: level of inhibition, or share of isolates inhibited. Neighbouring rows are from separate reports. Blank or dashed fields: not listed here. ECn is the concentration giving n% inhibition of infection, replication or growth. Percent inhibition refers to the dose given; in toxicity tests it is the harm to the cells.